Test system: P. aeruginosa
Assay: Neutropenic thigh infection model (CD-1 mice), exposure response of ceftazidime q2h and avibactam
Assay type: in vivo, Pseudomonas aeruginosa
Protocol: CD-1 neutropenic mice were infected with appr. 10^6 cfu β-lactamase-producing P. aeruginosa strains in the thigh.
Outbred female CD-1 mice (Charles River, Netherlands), 4 to 5 weeks old, weighing 20 to 25 g were used in the experiments. Granulocytopenia was induced by two doses of cyclophosphamide s.c.: one at four days (150 mg/kg) and the other at one day (100 mg/kg) before the infection experiment.
The neutropenic mice were infected with 2 P. aeruginosa strains per animal, one in the left and one in the right thigh. 0.05 mL of bacterial suspension consisting of approximately 10^5-10^6 bacteria was inoculated intramuscularly. […] All dosing regimens were performed in at least two animals. At t=0 h, 2 mice were humanely sacrificed to determine the initial inoculum just before treatment. All other animals were sacrificed at t=24 h unless the welfare of the animals indicated earlier termination was necessary, following animal welfare regulations. Thighs were taken and moved to a pre-cooled 10-mL plastic tube (Transport Tube, Omnilabo, NL) ? containing 2 mL phosphate buffered saline (PBS; NaCl 8.00 g/L, Na2HPO42H2 1.44 g/L, KH2PO4 0.26 g/L, pH 7.2-7.4). Subsequently thighs were ground using an Ultra-Turrax (IKA Labortechnik, Germany). A tenfold dilution series was prepared and 3×10 μL plated (Chromagar, Biomerieux, NL) per dilution. The following day, colonies were counted and the number of cfu per thigh calculated. The drug effect was then determined as the difference between the log10[cfu/thigh] values at t=24 h and t=0 h (mean value of 2 mice) expressed as “dcfu”.
The amount of avibactam administered varied in frequency and dose. […] The drug effect was determined as the difference between the log10 [cfu/thigh] values at t=24 h and t=0 h (mean value of 2 mice) expressed as dcfu. Free drug concentrations were used in all calculations. […] Oral presentation at the ? 52nd Interscience Conference on Antimicrobial Agents and Chemotherapy, San Francisco, Calif. Abstract #A-1760).

## NC(=O)[C@@H]1CC[C@@H]2CN1C(=O)N2OS(=O)(=O)[O-].[Na+] [avibactam, [(2S,5R)-2-carbamoyl-7-oxo-1,6-diazabicyclo[3.2.1]octan-6-yl]hydrogen sulfate]
Strain 1, SE between brackets
  Emax model Hill slope: ≈′−0.35)
Strain 5, SE between brackets
  Emax model Hill slope: −1.185 (0.86)
Strain 7, SE between brackets
  Emax model Hill slope: −1.01 (0.41)
Strain 11, SE between brackets
  Emax model Hill slope: −1.98 (0.86)
Strain 18, SE between brackets
  Emax model Hill slope: −2.60 (1.16)
Strain 19, SE between brackets
  Emax model Hill slope: −5.75 (3.57)
